Compound potency records, mixed from different reports. Data source: NIAID ChemDB in PubChem.

Shared fields: whole-cell or culture tests; organism: Plasmodium falciparum; measure: EC50

Conditions beyond the fields shown may differ between rows. Blank or dashed fields: not listed here. ECn: concentration that inhibits the pathogen or its effect by n%.

smiles	cells	strain	conditions	result
CCC(C)(C(=O)Nc1cc(C(F)(F)F)ccc1-n1cncn1)c1cccc(C(F)(F)F)c1	-	3D7	-	0.003 µM
OCCNc1nc(NCCNc2ccnc3cc(Cl)ccc23)nc(N2CCOCC2)n1	-	W2	-	1.7 µM
CCOc1ccc(F)cc1C1(O)c2cc(Cl)ccc2NC1N	-	Dd2	-	0.065 µM
COc1ccc(/C=C/C(=O)c2ccc(N3CCOCC3)cc2)c(OC)c1	-	-	-	2.95 µg/mL
CCCCCCCCCCCCCCC#CC(=O)O	-	K1	-	41.2 µM
O=C1Nc2ccccc2C1(O)c1ccccc1	-	3D7	-	>5 µM
CN(Cc1ccccc1)Cc1ccc(CNc2ccnc3cc(Cl)ccc23)cc1	-	Dd2	-	0.026 µM
COc1ccc(Nc2nc(NCCCCNc3ccnc4cc(Cl)ccc34)nc(N3CCOCC3)n2)cc1	-	W2	-	0.71 µM
Cc1ccccc1CC1(O)C(N)=Nc2ccc(Cl)cc21	-	Dd2	-	0.139 µM
Cc1ccc(-n2cc(/C=N/Nc3ccncc3)c(-c3ccccc3)n2)cc1	-	RKL9	-	0.076 µM
COCc1c(O)cc2c(c1O)C(=O)c1ccccc1C2=O	-	3D7	-	2.1 µM
COc1cc(C(=O)O)ccc1OC1CC(O)C(O)C(COC(=O)/C=C/c2ccccc2)O1	Erythrocytes	3D7	-	>25 µM
O=C(Nc1cc(C(F)(F)F)ccc1-n1cncn1)C1(c2cccc(Cl)c2)CC1	-	3D7A	-	0.02 µM
CCc1ccc(Nc2nc(NCCCCNc3ccnc4cc(Cl)ccc34)nc(N3CCOCC3)n2)cc1	-	D6	-	0.39 µM
Cc1c(-c2ccc(Cc3ccc(OC(F)(F)F)cc3)cc2)[nH]c2ccc(O)cc2c1=O	-	3D7	-	0.139 µM
NC1=Nc2ccc(Cl)cc2[C@@]1(O)c1ccccc1	-	Dd2	-	1.46 µM
O=C(Nc1cc(C(F)(F)F)ccc1-n1cncn1)C1(c2ccccc2)CC1	-	FCR3	-	0.142 µM
CN(Cc1ccc(Cl)cc1)Cc1ccc(CNc2ccnc3cc(Cl)ccc23)cc1	-	K1	-	>1 µM
COc1ccc(/C=C/C(=O)c2ccc(N3CCCCC3)cc2)c(OC)c1	-	-	-	7.68 µg/mL
CCN(CC)CCCC(C)Nc1ccnc2cc(Cl)ccc12	-	RKL9	-	0.188 µM
CC(=O)OC(C)(C)CCC(=O)[C@](C)(O)C1[C@H](O)C[C@@]2(C)C3CC=C4C(O[C@H](OC5OC(CO)C(O)C(O)C5O)[C@H](O)C4(C)C)[C@]3(C)CC[C@]12C	Erythrocytes	3D7	-	>25 µM
O=Cc1c(O)cc2c(c1O)C(=O)c1ccccc1C2=O	-	3D7	-	72.46 µM
COc1ccc(/C=C/C(=O)c2ccc(-n3nnc4ccccc43)cc2)cc1OC	-	-	-	3.5 µg/mL
Cc1c(-c2ccc(Cc3ccc(OC(F)(F)F)cc3)cc2)[nH]c2cc(O)ccc2c1=O	-	3D7	-	0.819 µM
CCN(CC)CCCC(C)Nc1ccnc2cc(Cl)ccc12	-	Dd2	72 h	0.01 µg/mL
COc1c(C=O)c(O)cc2c1C(=O)c1ccccc1C2=O	-	3D7	-	51.28 µM
COc1ccc(OC)c(/C=C/C(=O)c2ccc(-n3cccc3)cc2)c1	-	-	-	6.36 µg/mL
COc1ccc2nc3cc(Cl)ccc3c(Nc3cc(CN4CCCC4)c(O)c(CN4CCCC4)c3)c2n1	-	Clinical isolates	-	0.0135 µM
O=C(O)c1cn(-c2ccc(Cl)cc2)nc1-c1ccccc1	-	RKL9	-	0.033 µM
COc1ccc(/C=C/C(=O)c2ccc(N3CCCCC3)cc2)cc1	-	-	-	6.92 µg/mL
CCc1ccc(Nc2nc(NCCCNc3ccnc4cc(Cl)ccc34)nc(N3CCOCC3)n2)cc1	-	D6	-	0.4 µM
COc1ccc(OC)c(/C=C/C(=O)c2ccc(N3CCCCC3)cc2)c1	-	-	-	6.13 µg/mL
O=C(/C=C/c1ccc(O)c(O)c1)OCC1OC(OCC(O)C(O)C(O)C(O)CO)CC(O)C1O	Erythrocytes	3D7	-	>25 µM
COc1ccc(Nc2nc(NCCNc3ccnc4cc(Cl)ccc34)nc(N3CCOCC3)n2)cc1	-	W2	-	0.59 µM
COc1ccc2[nH]cc(C3(O)C(N)=Nc4ccc(Cl)cc43)c2c1	-	Dd2	-	>5 µM
COc1cc(/C=C/C(=O)c2ccc(-n3nnc4ccccc43)cc2)cc(OC)c1OC	-	-	-	8.15 µg/mL
Fc1ccc(Nc2nc(NCCNc3ccnc4cc(Cl)ccc34)nc(N3CCOCC3)n2)cc1	-	W2	-	0.48 µM
CN(C)CCNC(=O)c1sc(-c2ccccc2)nc1-c1ccccc1	-	3D7	-	>19.3 µg/mL
COc1ccc(/C=C/C(=O)c2ccc(N3CCN(C)CC3)cc2)cc1OC	-	-	-	4.96 µg/mL
CCN(CC)CCNC(=O)c1sc(-c2cccnc2)nc1-c1ccccc1	-	3D7	-	>19.3 µg/mL
COc1ccc(/C=C/C(=O)c2ccc(-n3nnc4ccccc43)cc2)c(OC)c1	-	-	-	7.22 µg/mL
Cc1c(-c2cccc(Cc3ccc(OC(F)(F)F)cc3)c2)[nH]c2ccc(Cl)cc2c1=O	-	TM90C2B	-	0.094 µM
CCN(CC)CCNC(=O)c1sc(-c2ccc(OC)cc2)nc1-c1ccccc1	-	3D7	-	>19.3 µg/mL
OCCCNc1nc(NCCCCNc2ccnc3cc(Cl)ccc23)nc(N2CCCCC2)n1	-	W2	-	1.17 µM

Repeating the first 6 entries:

| smiles | cells | strain | conditions | result |
|---|---|---|---|---|
| CCC(C)(C(=O)Nc1cc(C(F)(F)F)ccc1-n1cncn1)c1cccc(C(F)(F)F)c1 | - | 3D7 | - | 0.003 µM |
| OCCNc1nc(NCCNc2ccnc3cc(Cl)ccc23)nc(N2CCOCC2)n1 | - | W2 | - | 1.7 µM |
| CCOc1ccc(F)cc1C1(O)c2cc(Cl)ccc2NC1N | - | Dd2 | - | 0.065 µM |
| COc1ccc(/C=C/C(=O)c2ccc(N3CCOCC3)cc2)c(OC)c1 | - | - | - | 2.95 µg/mL |
| CCCCCCCCCCCCCCC#CC(=O)O | - | K1 | - | 41.2 µM |
| O=C1Nc2ccccc2C1(O)c1ccccc1 | - | 3D7 | - | >5 µM |